Compound potency records, mixed from different reports. Data source: NIAID ChemDB in PubChem.

Shared fields: whole-cell or culture tests; agent: Varicella zoster virus; measure: EC50

Rows are shuffled and stem from different studies. ECn: concentration that inhibits the pathogen or its effect by n%.

O=c1nc2oc(CCCOc3ccccc3)cc2cn1[C@H]1C[C@H](O)[C@@H](CO)O1 ; cell line: HEL ; strain: (TK-)07/1 ; method: plaque count ; result: >200 µM
CC#Cc1cn([C@@H]2O[C@H](CO)[C@@H](O)[C@@H]2O)c(=O)[nH]c1=O ; cell line: HEL ; strain: OKA (TK+) ; method: plaque count ; result: 0.18 µM
O=c1[nH]cnc2c1ncn2[C@@H]1O[C@H](CO)[C@H]1CO ; cell line: HEL ; strain: (TK-)/YS/R ; method: plaque count ; result: 124.3 µg/mL
O=c1[nH]c(=O)n([C@H]2C[C@H](O)[C@@H](CO)O2)cc1-c1cc(Br)no1 ; cell line: HEL ; strain: OKA ; method: plaque count ; result: 0.09 µg/mL
O=c1[nH]c(=O)n([C@@H]2C[C@@H](O)[C@H](CO)O2)cc1/C=C/Br ; cell line: HEL 299 ; result: >100 µM
CC1(C)[C@H](CCO)C[C@@H]1n1nnc2c(N)ncnc21 ; strain: 07/1 (TK-) ; method: plaque count ; result: 9.3 µg/mL
CCCCCCc1cc2cn([C@H]3C[C@H](O)[C@@H](CO)O3)c(=O)nc2[nH]1 ; cell line: HEL ; strain: OKA ; method: plaque count ; result: >50 µM
O=c1nc2oc(CCOC3CCCCO3)cc2cn1[C@H]1C[C@H](O)[C@@H](CO)O1 ; cell line: HEL ; strain: 07/1 (TK-) ; method: plaque count ; result: >40 µM
Cc1ccn2c(C3SCCS3)cnc2c1 ; cell line: HEL ; strain: OKA ; result: >1000 µM
Nc1nc(=S)n([C@H]2C[C@H](O)[C@@H](CO)O2)cc1Br ; cell line: MRC-5 ; strain: HOSEN ; method: plaque count ; result: 8.43 µM
Cc1cccn2c(C3OCCS3)cnc12 ; cell line: HEL ; strain: OKA ; result: >1000 µM
Cc1cn([C@H]2C[C@H](O)[C@@H](CO)O2)c(=S)[nH]c1=O ; cell line: MRC-5 ; strain: HOSEN ; method: plaque count ; result: 27.4 µM
Cc1cccn2c(C3SCCS3)cnc12 ; cell line: HEL ; strain: OKA ; result: >1000 µM
O=C(NCc1ccc(Cl)cc1)c1c[nH]c2c(F)cccc2c1=O ; strain: DIE ; method: plaque count ; result: 0.6 µM
Nc1nc2c(ncn2COCCO)c(=O)[nH]1 ; cell line: HEL ; strain: (TK-)/YS/R ; method: plaque count ; result: 22.2 µg/mL
C=Cc1cn([C@H]2C[C@H](O)[C@@H](CO)O2)c(=S)[nH]c1=O ; cell line: MRC-5 ; strain: Kanno-Kohmura (TK-) ; method: plaque count ; result: >290.3 µM
CC1(C)[C@H](CCO)C[C@@H]1n1cnc2c(=O)[nH]cnc21 ; strain: 07/1 (TK-) ; method: plaque count ; result: >50 µg/mL
O=c1[nH]c(=S)n([C@@H]2O[C@H](CO)[C@@H](O)[C@@H]2O)cc1CCO ; cell line: MRC-5 ; strain: CAQU (TK+) ; method: plaque count ; result: >244.8 µM
CCCCCCCCCCCCc1cc2cn([C@H]3C[C@H](O)[C@@H](CO)O3)c(=O)nc2o1 ; cell line: HEL ; strain: YS/R (TK-) ; method: plaque count ; result: >50 µM
CCc1cn([C@H]2C[C@H](O)[C@@H](CO)O2)c(=S)[nH]c1=O ; cell line: MRC-5 ; strain: CAQU (TK+) ; method: plaque count ; result: 9.5 µM
Cc1ccn2c(C(SCCc3ccccc3)SCCc3ccccc3)cnc2c1 ; cell line: HEL ; strain: OKA ; result: >1000 µM
Nc1ncc2ncn([C@H]3CCC[C@H]3CO)c2n1 ; cell line: HEL ; strain: YS (TK+) ; method: plaque count ; result: >20 µg/mL
Nc1nc2c(ncn2CCC(CO)CO)c(=O)[nH]1 ; cell line: HEL ; strain: Clinical isolate VZV-13 ; method: cytopathic effect ; result: 3.54 µM
CCCCCCCCc1cc2cn([C@H]3C[C@H](O)[C@@H](CO)O3)c(=O)nc2s1 ; cell line: HEL ; strain: YS ; method: plaque count ; result: 0.001 µM
Nc1nc2c(ncn2[C@@H]2O[C@H](CO)[C@H]2CO)c(=O)[nH]1 ; cell line: HEL ; strain: (TK-)/YS/R ; method: plaque count ; result: 1.8 µg/mL
C[C@H](Cn1nnc2c(N)ncnc21)OCP(=O)(O)O ; cell line: HEL ; strain: OKA (TK+) ; method: cytopathic effect ; result: 8 µg/mL
CCCc1ccc(OCCCc2cc3cn([C@H]4C[C@H](O)[C@@H](CO)O4)c(=O)nc3o2)cc1 ; cell line: HEL ; strain: (TK+)/OKA ; method: plaque count ; result: 8.4 µM
Nc1nc2c(ncn2[C@@H]2C=C[C@H](CO)[C@@H](O)C2)c(=O)[nH]1 ; strain: KOS (TK-) ; result: 2.1 µg/mL
Nc1nc(=S)n([C@@H]2O[C@H](CO)[C@@H](O)[C@@H]2O)cc1I ; cell line: MRC-5 ; strain: HOSEN ; method: plaque count ; result: 3.9 µM
COc1cc(OC)c(NC(=S)Nc2ccc(NC=O)cc2Cl)cc1Cl ; cell line: HFF ; strain: ELLEN ; method: ELISA ; result: >10 µg/mL
O=C(O)P(=O)(O)O ; cell line: HEL ; strain: 13 isolates ; method: plaque count ; result: 84.7 µM
O=c1[nH]c(=O)n([C@H]2CO[C@@H](CO)O2)cc1/C=C/Br ; cell line: HEL 299 ; result: 21 µM
C[C@H](Cn1nc2ncnc(N)c2n1)OCP(=O)(O)O ; cell line: HEL ; strain: 07/1 (TK-) ; method: cytopathic effect ; result: 5 µg/mL
CCCCCCCCCCCc1cc2cn([C@H]3C[C@H](O)[C@@H](CO)O3)c(=O)nc2o1 ; cell line: HEL ; strain: YS ; method: plaque count ; result: 0.37 µM
Nc1nccc2c1ncn2C[C@@H](CO)OCP(=O)(O)O ; cell line: HEL ; strain: YS/R (TK-) ; method: plaque count ; result: 0.06 µg/mL
Nc1ccn(C[C@@H](CO)OCP(=O)(O)O)c(=O)n1 ; cell line: HEL ; strain: Oka CF1368-resistant ; method: cytopathic effect ; result: 0.06 µM
O=C(O)CP(=O)(O)O ; cell line: HEL ; strain: 07/1 (TK-) ; method: plaque count ; result: 57.1 µM
O=c1[nH]c(=S)n([C@H]2C[C@H](O)[C@@H](CO)O2)cc1Cl ; cell line: MRC-5 ; strain: HOSEN ; method: plaque count ; result: >360 µM
Nc1nc2c(ncn2[C@H]2CCC[C@H]2CO)c(=O)[nH]1 ; cell line: HEL ; strain: YS (TK+) ; method: plaque count ; result: >50 µg/mL
O=c1nc2oc(CCCCCCCCCI)cc2cn1[C@H]1C[C@H](O)[C@@H](CO)O1 ; cell line: HEL ; strain: YS ; method: plaque count ; result: 0.03 µM
Nc1ccn(C[C@@H](CO)OCP(=O)(O)O)c(=O)n1 ; cell line: HEL ; strain: 07/1 (TK-) ; method: plaque count ; result: 0.23 µM
Nc1nc2c(ncn2COC(CO)CO)c(=O)[nH]1 ; cell line: HEL ; strain: Oka PMEA-resistant ; method: cytopathic effect ; result: 1.4 µM
O=c1nc2oc(CCCCOc3ccccc3)cc2cn1[C@H]1C[C@H](O)[C@@H](CO)O1 ; cell line: HEL ; strain: TK+/YS ; method: plaque count ; result: 13 µM
O=C(O)P(=O)(O)O ; cell line: HEL ; strain: Oka PMEA-resistant ; method: cytopathic effect ; result: 234.1 µM
CC(NC(=S)Nc1ccc(NC(=O)c2nccc3ccccc23)cc1)c1cc2ccccc2o1 ; cell line: HFF ; strain: ELLEN ; method: ELISA ; result: 0.05 µg/mL
Nc1nc2c(ncn2CCOCP(=O)(O)O)c(=O)[nH]1 ; cell line: HEL ; strain: YS/R (TK-) ; method: plaque count ; result: 0.001 µg/mL
Nc1ncnc2nn(C[C@@H](CF)OCP(=O)(O)O)nc12 ; cell line: HEL ; strain: YS/R (TK-) ; method: cytopathic effect ; result: >10 µg/mL
OC[C@H]1O[C@@H](c2cc(C(O)CBr)c(F)cc2F)C[C@@H]1O ; cell line: HEL ; strain: OKA (TK+) ; method: plaque count ; result: >20 µg/mL
CCOP(=O)(O)COCCn1cnc2c(=O)[nH]c(N)nc21 ; cell line: HEL ; strain: OKA (TK+) ; method: plaque count ; result: 0.008 µg/mL
OC[C@H]1O[C@@H](c2cc(C(O)CI)c(F)cc2F)C[C@@H]1O ; cell line: HEL ; strain: YS/R (TK-) ; method: plaque count ; result: >50 µg/mL
CC1(C)[C@H](CCO)C[C@@H]1n1cnc2c(N)ncnc21 ; strain: YS/R (TK-) ; method: plaque count ; result: 20 µg/mL
Nc1nc(N)c2ncn(C[C@H]3CCC[C@H]3CO)c2n1 ; cell line: HEL ; strain: 07/1 (TK-) ; method: plaque count ; result: >50 µg/mL
O=c1[nH]c(=O)n([C@@H]2O[C@H](CO)[C@@H](O)[C@@H]2O)cc1/C=C/Br ; cell line: HEL ; strain: 13 isolates ; method: plaque count ; result: 0.00022 µM
CC(C)CS[C@@H]1C=C[C@H](n2cnc3c(N)ncnc32)C1 ; cell line: HEL ; strain: YS ; method: cytopathic effect ; result: >20 µg/mL
Nc1ccn([C@@H]2O[C@H](CO)[C@@H](O)[C@H]2O)c(=S)n1 ; cell line: MRC-5 ; strain: HOSEN ; method: plaque count ; result: >386 µM
O=c1nc2oc(CCCC3OCCCO3)cc2cn1[C@H]1C[C@H](O)[C@@H](CO)O1 ; cell line: HEL ; strain: YS/R (TK-) ; method: plaque count ; result: >200 µM
C[C@H](Cn1nc2nc(N)[nH]c(=O)c2n1)OCP(=O)(O)O ; cell line: HEL ; strain: OKA (TK+) ; method: cytopathic effect ; result: >20 µg/mL
Nc1ncnc2c1ncn2C[C@@H](CO)OCP(=O)(O)O ; cell line: HEL ; strain: YS/R (TK-) ; method: plaque count ; result: 0.02 µg/mL
O=c1[nH]c(=S)n([C@@H]2O[C@H](CO)[C@@H](O)[C@@H]2O)cc1/C=C/c1ccccc1 ; cell line: MRC-5 ; strain: CAQU (TK+) ; method: plaque count ; result: 2.6 µM
CCCCCOCCCCc1cc2cn([C@H]3C[C@H](O)[C@@H](CO)O3)c(=O)nc2o1 ; cell line: HEL ; strain: OKA ; method: plaque count ; result: 0.5 µM